Here are results for one molecule from patent US7601358B2, “Mycobacterium tuberculosis protein composition” (priority 2006, dated 2009).

The subject of the experiment is OLE1 deficient yeast strain L8-14C. In kind it is cell-based, Saccharomyces cerevisiae. The conditions noted are these: OLE1 deficient yeast L8-14C, galactose medium, absence of unsaturated fatty acids; plus grades not defined.

B1: DesA3: Mycobacterium tuberculosis desaturase DesA3 (Rv3229c), SEQ ID NO: 10 (protein, listed as Mycobacterium tuberculosis)
chain: MAITDVDVFAHLTDADIENLAAELDAIRRDVEESRGERDARYIRRTIAAQRALEVSGRLLLAGSSRRLAWWTGALTLGVAKIIENMEIGHNVMHGQWDWMNDPEIHSSTWEWDMSGSSKHWRYTHNFVHHKYTNILGMDDDVGYGMLRVTRDQRWKRYNIFNVVWNTILAIGFEWGVALQHLEIGKIFKGRADREAAKTRLREFSAKAGRQVFKDYVAFPALTSLSPGATYRSTLTANVVANVIRNVWSNAVIFCGHFPDGAEKFTKTDMIGEPKGQWYLRQMLGSANFNAGPALRFMSGNLCHQIEHHLYPDLPSNRLHEISVRVREVCDRYDLPYTTGSFLVQYGKTWRTLAKLSLPDKYLRDNADDAPETRSERMFAGLGPGFAGADPVTGRRRGLKTAIAAVRGRRRSKRMAKSVTEPDDLAAKLHHHHHH
As to B1, the In vivo activity result is listed as “None without Rv32320c”.
